# Laboratory results published in patent US6391897B2, “Biphenyl oxo-acetic acids useful in the treatment of insulin resistance and hyperglycemia” (American Home Products Corporation, priority 1998, dated 2002).
# Tested on: rat hepatic microsomal PTPases
# Test: Inhibition of tri-phosphorylated insulin receptor dodecaphosphopeptide dephosphorylation by rat hepatic PTPases (malachite green)
# Type: biochemical
# Conditions: rat hepatic microsomal PTPase activity; compound at 50 μM
substance,measurement,value
Phenylarsine oxide,% Change from Control,−57%
